## Primary screen of a compound library

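Growth of Mycobacterium tuberculosis over 4 days (cholesterol / DPPC medium with tyloxapol); the read-out is not stated. Concentration: 500 µM. Direction is inferred from retests: higher values go with more growth inhibition. About 18,000 compounds were tested under these conditions; 5% (about 900) showed 50% or more at least once.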

The filed quantity is “Percent Effect” (%).
The controls that fix the scale are not given in the record; negative values are as filed.
Many other results are left out here, so strong results are more common than in the screen.

| structure | percent effect |
|---|---|
| `Cn1cc(CC(CN)CO)cn1` (stereo not given) | -7.234 |
| `Cc1nnnn1CC(=O)NCc1ccco1` | 0.8983 |
| `CNC(=O)CCN(C)C(=O)C(C)Oc1ccccc1Br` (stereo not given) | -7.78 |
| `CN(C)S(=O)(=O)N1CCCC1c1ccsc1` (stereo not given) | 32.64 |
| `CNS(=O)(=O)c1ccc(C(=O)Nc2ccccc2C)o1` | 0.6027 |
| `O=S(=O)(c1ccc(O)cc1)N1CCCCC1` | 40.77 |
| `NC(=O)CCc1ccc(S(=O)(=O)N2CCCCC2)cc1` | 6.484 |
| `Cc1nc(COc2ccc(C(=O)OCC#N)cc2)no1` | 76.75 |
| `C=C(C)COc1ccc(C(=O)NCC[C@@H](C)CO)cc1` | 65.35 |
| `O=C(c1ccc[nH]1)N1CCC(Nc2cccnc2)CC1` | -1.061 |
| `CC(=O)c1ccc(C(=O)NCCN2CCOCC2)s1` | -4.009 |
| `CCc1ccc(CN2CCN3CCN(C)CC3C2)o1` (stereo not given) | -6.281 |
| `CCc1n[nH]c(SCC(=O)NCCSc2cnn[nH]2)n1` | 0.05548 |
| `COc1cccc(-c2ncc(CN)s2)c1` | 71.93 |
| `COCCNCCNC(=O)c1csc2ccccc12` | 16.91 |
| `CC1CCCCN1C(=O)c1ccc(CN)cc1` (stereo not given) | 5.197 |
| `COCCC1CN(C(=O)c2ccccc2C#N)CCO1` (stereo not given) | 7.402 |
| `CCN1CCN(c2ccc(C(C)=O)cc2)CC1` | -16.28 |
| `NC(=O)CCSCc1ccn(-c2ccccc2)n1` | 86.71 |
| `CN(Cc1ccccc1)C(=O)C1CCNCC1` | 12.37 |
| `COc1ccc(C)c(NC(=O)CNC(=O)C2CC2)c1` | 0.01176 |
| `COCCn1nc(-c2nc(CC(C)C)no2)ccc1=O` | 35.95 |
| `Cn1nccc1C(=O)N1CCC(Oc2ccccc2)C1` (stereo not given) | 52.32 |
| `NS(=O)(=O)N1CCN(c2cc(F)ccc2F)CC1` | 23.47 |
| `CC(C)(C)OC(=O)N1CC(F)(F)CC1CO` (stereo not given) | 59.36 |
| `CCOCCCC(=O)NCCC(=O)Nc1ccccc1` | -7.063 |
| `Cc1ccccc1OCCC(=O)NC1CCS(=O)(=O)C1` (stereo not given) | -9.707 |
| `Cc1cc(CN)[nH]n1` | 21.01 |
| `CC(Nc1ccn(CC(F)(F)F)n1)C(=O)N1CCCC1` (stereo not given) | -3.277 |
| `CN(C)S(=O)(=O)c1ccc2c(c1)NCC2` | 6.801 |
| `NC1CC(=O)N(c2c(F)cccc2F)C1` (stereo not given) | 0.3249 |
| `CC(C#N)(NC(=O)CSc1nnc(N)s1)C1CC1` (stereo not given) | 0.7944 |
| `Cc1ccnc(NCCNC(=O)c2cc(C)n[nH]2)c1` | 9.313 |
| `NCc1cnn(-c2ccc(Br)cc2)c1` | 55.45 |
| `CN1C(=O)CC(Nc2ccc3c(c2)CCC3)C1=O` (stereo not given) | 8.34 |
| `CS(=O)(=O)CCS(=O)(=O)CC=Cc1ccccc1` | -2.282 |
| `COc1ccccc1CC(=O)Nc1ccon1` | 16.98 |
| `CC1CCCCN1S(=O)(=O)N1CCNCC1` (stereo not given) | 79.13 |
| `OCCC1(NCC(F)(F)F)CCOCC1` | -9.939 |
| `N[C@H]1CCN(c2ccccc2)C1` | 3.052 |
| `Cn1cc(C(=O)NCc2cccc(F)c2)ccc1=O` | -7.69 |
| `CC(N)c1noc(-c2ccccc2)n1` (stereo not given) | 31.06 |
| `O=C1CC(c2ccccc2Cl)NN1` (stereo not given) | 12.56 |
| `Cc1ccc(C(=O)C2CCN(S(C)(=O)=O)CC2)cc1` | -23.61 |
| `O=C(CCNCc1sccc1Cl)NCc1cccnc1` | -0.0577 |
| `CN(c1ccc(C(=O)N2CCCCC2)cc1)S(C)(=O)=O` | 11.49 |
| `CN(C)C(=O)Cn1ncc2ccccc21` | -5.767 |
| `CN1CCC(N(C)CC(O)COc2ccccc2)CC1` (stereo not given) | -6.467 |
| `CCCn1nnnc1NCc1ccc(C)s1` | 59.92 |
| `CC(SCc1cccc(S(=O)(=O)N(C)C)c1)C(N)=O` (stereo not given) | 10.27 |
| `COC(=O)c1cccc(F)c1` | 8.886 |
| `CCN1CCCN(CC(=O)NC(C)(C#N)C(C)C)CC1` (stereo not given) | -2.579 |
| `CCC(=O)Nc1ccc(CN2CCOCC2)c(Cl)c1` | 6.286 |
| `COc1ccc(C#N)cc1CN1CCNC(=O)CC1` | -8.317 |
| `CC(=O)c1ccc(NCC(=O)NC(C)C(C)C)cc1` (stereo not given) | 64.89 |
| `CCCN(C)C(=O)c1cc(CN2CCOCC2)on1` | -4.778 |
| `NCCc1nc(-c2ccccn2)cs1` | 31.8 |
| `Brc1cncc(NCc2ncc[nH]2)c1` | 57.06 |
| `CC(=O)NC1CCN(c2ncccc2C#N)CC1` | -11.08 |
| `COc1cccc(OC)c1OCC(O)COC(C)C` (stereo not given) | 10.94 |
| `CO[C@H]1CN(Cc2nccn2C(C)C)CC[C@H]1N` | 2.984 |
| `CCCn1ncc(CN(C)CCC(=O)NC)c1C` | -13.13 |
| `NC(=O)c1ccccc1CO` | -21.18 |
| `COc1ccc(CN)nc1` | 5.946 |
| `O=C(Cn1ccc(C(F)(F)F)n1)NCc1ccco1` | 38.94 |
| `Cc1ccn(CC(=O)N(C)CC(F)(F)F)c(=O)c1C#N` | -4.142 |
| `Cc1ccc(F)cc1C(=O)OCCCNC(N)=O` | 15.66 |
| `CN(C)C(=O)CNC(CO)c1ccc(Cl)c(F)c1` (stereo not given) | -16.18 |
| `CNS(=O)(=O)c1ccc(C(=O)N2CCCCC2C)o1` (stereo not given) | 3.57 |
| `CCS(=O)(=O)N(C)CCCNc1cccc(C)n1` | 48.5 |

Measurements from “University of Dundee, Small-Polar-MMV Screening Library” (2021), ChEMBL document CHEMBL3988442.